Consider 1 molecule from ChEMBL document CHEMBL6153072, “Metabolically Stable Adenylation Inhibitors of Biotin Protein Ligase as Antibacterial Agents” (J Med Chem, 2025).

The subject of assay [1] is Mycobacterium tuberculosis. As to the kind of experiment: Selectivity ratio of MIC50 for Mycobacterium tuberculosis H37Rv harboring under-expression of BPL to MIC50 for wild type Mycobacterium tuberculosis H37Rv. Type of assay: functional.
Assay [2] concerns Mycobacterium tuberculosis. As to the kind of experiment: Selectivity ratio of MIC50 for wild type Mycobacterium tuberculosis H37Rv to MIC50 for Mycobacterium tuberculosis H37Rv harboring high overexpression of BPL. Type of assay: functional.

Consider `Nc1ncnc2c1ncn2[C@@H]1O[C@H](CNS(=O)(=O)[N-]C(=O)NCCC[C@@H]2SC[C@@H]3NC(=O)N[C@@H]32)[C@@H](O)[C@H]1O.[Na+]`, for which the Ratio was 70 in assay [1] and 5 in assay [2].
